Measured values from several laboratories, pooled; numbers as filed in NIAID ChemDB.

Common to all: whole-cell or culture tests; species: Poliovirus; endpoint: EC50

ECn: concentration that inhibits the pathogen or its effect by n%.

| smiles | strain | cell line | result |
|---|---|---|---|
| Cc1nsc(C)c1C#N | Type 1/Brunhilde | HEP-2 | >1000 µM |
| CSc1nsc(-c2ccc(OS(=O)(=O)c3ccc(C)cc3)cc2)c1C#N | TYPE 1 | HEP-2 | >25 µM |
| OCCOCn1c(CCc2ccccn2)nc2cc(Cl)c(Cl)cc21 | TYPE 1 | HEL | >100 µg/mL |
| O=c1c(Cc2ccccc2)coc2ccccc12 | TYPE 2 | HeLa | >25 µM |
| Nc1nc2c(ncn2CCCC(O)CF)c(=O)[nH]1 | TYPE 1 | HeLa | >400 µg/mL |
| CC=NC(=N)c1nc(-c2cccc(C)c2)n(COCCO)n1 | TYPE 1 | HeLa | >200 µg/mL |
| OC[C@H]1O[C@H](c2cncc(Br)c2)[C@@H](O)[C@H]1O | - | HeLa | ≥100 µg/mL |
| CSc1nsc(-c2cc[n+](C)cc2)c1C#N | Type 1/Brunhilde | HEP-2 | >1000 µM |
| O=c1c(Cc2ccc(Cl)cc2)coc2ccccc12 | TYPE 2 | HeLa | >25 µM |
| COc1ccc(-c2cc(N(C)C)no2)c(O)c1 | SABIN (TYPE 1) | VERO | >427 µM |
| CC(=O)OCCOCN1C=CC(=O)NS1(=O)=O | TYPE 1 | HeLa | >400 µg/mL |
| OCCOCn1c(SCc2ccccn2)nc2cc(Cl)c(Cl)cc21 | TYPE 1 | HEL | >50 µg/mL |
| COc1cc(/C=C/C(=O)Oc2c(-c3ccc(Cl)c(Cl)c3)oc3ccccc3c2=O)ccc1O | TYPE 2 | HeLa | >1.56 µM |
| Nc1ccn([C@@H]2C=C(CO)[C@@H](O)[C@H]2O)c(=O)n1 | - | HeLa | 0.1 µg/mL |
| Nc1ncnc2c1ncn2C[C@H](O)CO | TYPE 1 | HeLa | >400 µg/mL |
| Cc1cn([C@@H]2O[C@H](CO)[C@](O)(C(F)(F)F)[C@H]2O)c(=O)[nH]c1=O | TYPE 1 | HeLa | >400 µg/mL |
| C=C(N=CC)c1nc(-c2ccccc2)n(C2O[C@H](CO)[C@@H](O)[C@H](O)[C@H]2O)n1 | TYPE 1 | HeLa | >200 µg/mL |
| OCCOCn1c(CCc2ccccn2)nc2ccccc21 | TYPE 1 | HEL | >100 µg/mL |
| O=C1/C(=C/c2ccc(O)cc2)COc2ccccc21 | TYPE 2 | HeLa | >6.25 µM |
| CC(C)n1c(N)nc2ccc(/C(=N/O)c3ccccc3)cc21 | Type 1/Mahoney | BSC-1 | 0.09 µg/mL |
| CCOC(=O)c1ccc(OCCCCCc2cc(C)no2)cc1 | TYPE 2 | HELA-OHIO | 0.8 µg/mL |
| Clc1ccc(C2=Cc3cc(Cl)ccc3OC2)cc1 | SABIN (TYPE 2) | HEP-2 | >10 µM |
| Nc1nc2c(ccn2[C@H]2CO[C@@H](CO)C2)c(=O)[nH]1 | TYPE 1 | HeLa | >400 µg/mL |
| COc1ccc(-c2cc(N3CCCCC3)no2)c(O)c1 | SABIN (TYPE 1) | VERO | >364 µM |
| OC[C@H]1O[C@H](c2cncc(Br)c2)[C@@H](O)[C@@H]1O | - | HeLa | ≥100 µg/mL |
| CSc1nsc(-c2ccc(OCCCCOc3ccccc3)cc2)c1C#N | TYPE 1 | HEP-2/L-929/VERO | 5 µM |
| CN(C)c1cc(-c2ccc(O)cc2O)on1 | SABIN (TYPE 1) | VERO | 110 µM |
| Clc1ccc(C2CCc3ccccc3O2)c(Cl)c1 | IB (TYPE 2) | HEP-2 | >10 µM |
| Nc1ncnc2c1ncn2[C@@H]1C=C(CO)[C@@H](O)[C@H]1O | TYPE 1 | HeLa | ≥40 µg/mL |
| Cc1ccc(C(=O)CCCCOc2ccc(C3=NCCO3)cc2)s1 | TYPE 3 | VERO | 0.17 µM |
| COc1cc(C(=O)Oc2c(-c3ccc(Cl)cc3)oc3ccccc3c2=O)ccc1O | TYPE 2 | HeLa | >6.25 µM |
| Nc1ncnc2c1ncn2[C@@H]1C=C(CO)[C@@H](O)C1 | TYPE 1 | HeLa | >400 µg/mL |
| O=C1c2cc(Cl)ccc2OCC1Cc1ccc(Cl)cc1 | TYPE 2 | HeLa | 18.56 µM |
| Cc1cc(CCCCCCCOc2ccc(C3=NCCO3)cc2)on1 | TYPE 3 | VERO | 0.26 µM |
| C=C(N=CC)c1nc(-c2ccc(C)cc2)n(C2O[C@H](CO)[C@@H](O)[C@H](O)[C@H]2O)n1 | TYPE 1 | HeLa | >200 µg/mL |
| Clc1ccc2c(c1)CC(c1ccccc1)CO2 | IB (TYPE 2) | HEP-2 | >10 µM |
| Nc1ncnc2c([C@@H]3O[C@H](CSCCC(N)C(=O)O)C[C@H]3O)[nH]nc12 | TYPE 1 | HeLa | >20 µg/mL |
| CSc1nsc(-c2ccc(OCCOc3ccc(C#N)cc3)cc2)c1C#N | TYPE 1 | HEP-2/L-929/VERO | >2 µM |
| CCC1COC(c2ccc(OCCCCCCC(=O)c3ccc(C)s3)cc2)=N1 | TYPE 3 | VERO | 13.8 µM |
| NC(=S)c1cncc([C@@H]2O[C@H](CO)[C@@H](O)[C@@H]2O)c1 | - | HeLa | ≥100 µg/mL |
| Nc1ncnc2c1ncn2[C@@H]1C=C(CF)[C@H](O)[C@H]1O | TYPE 1 | HeLa | >200 µg/mL |
| C[C@@]1(O)[C@@H](CO)O[C@@H](n2cnc3c(N)ncnc32)[C@@H]1O | TYPE 1 | HeLa | >40 µg/mL |
| CC(=O)Oc1ccc(/C=C/C(=O)Oc2c(-c3ccc(Cl)cc3)oc3ccccc3c2=O)cc1OC(C)=O | TYPE 2 | HeLa | >0.39 µM |
| N#Cc1cncc([C@H]2O[C@H](CO)[C@@H](O)[C@@H]2O)c1 | - | HeLa | ≥100 µg/mL |
| C=C(N=CC)c1nc(-c2cccc(C)c2)n(C2O[C@H](CO)[C@@H](O)[C@H](O)[C@H]2O)n1 | TYPE 1 | HeLa | >400 µg/mL |
| COc1ccc(OCCCCCCn2ccnc2)c(Cl)c1 | TYPE 2/MEF1 | HeLa | 10.2 µM |
| CSc1nsc(-c2ccc(OCc3ccccc3)cc2)c1C#N | TYPE 1 | HEP-2 | >50 µM |
| Cc1cn(CCCC(O)CF)c(=O)[nH]c1=O | TYPE 1 | HeLa | >400 µg/mL |
| C1=C(c2ccccc2)COc2ccccc21 | II (TYPE 2) | HEP-2 | <10 µM |
| Cc1ccc(C(=O)CCCCOc2ccc(C3=N[C@@H](C)CO3)cc2)s1 | TYPE 2 | VERO | 2.26 µM |
| CC(=O)Oc1ccc(/C=C/C(=O)Oc2c(-c3ccc(Cl)c(Cl)c3)oc3ccccc3c2=O)cc1OC(C)=O | TYPE 2 | HeLa | >0.39 µM |
| CC=NC(=N)c1nc(-c2cccc(C)c2)n(Cc2ccccc2)n1 | TYPE 1 | HeLa | >10 µg/mL |
| C#CCOc1cc(OC)ccc1-c1cc(N(CC)CC)no1 | SABIN (TYPE 1) | VERO | >40 µM |
| CC(=O)c1c(-c2ccc(Cl)c(Cl)c2)oc2ccccc2c1=O | TYPE 2 | HeLa | >25 µM |
| OC[C@H]1O[C@@H](n2c(SCc3ccccn3)nc3ccccc32)[C@H](O)[C@@H]1O | TYPE 1 | HEL | >100 µg/mL |
| Cc1ccc(S(=O)(=O)O)cc1.N/C(=N/N=C/c1ccc2c(c1)OCO2)NO | Brunhilde (type 1) | VERO | >50 µM |
| COc1ccc(Cc2coc3cc(OC)cc(OC)c3c2=O)cc1 | TYPE 2 | HeLa | >6.25 µM |
| COc1cc(C(=O)Oc2c(-c3ccc(Cl)cc3)oc3ccccc3c2=O)cc(OC)c1O | TYPE 2 | HeLa | >1.56 µM |
| CCOC(=O)c1ccc(OCCCCOc2ccc(-c3snc(SC)c3C#N)cc2)cc1 | TYPE 1 | HEP-2/L-929/VERO | >2 µM |
| C=C(N=CC)c1nc(-c2cccc(C)c2)n([C@@H]2O[C@H](CO)[C@@H](O)[C@H]2O)n1 | TYPE 1 | HeLa | >200 µg/mL |
| NC(=O)c1cncc([C@@H]2O[C@H](CO)[C@@H](O)[C@@H]2O)c1 | - | HeLa | ≥100 µg/mL |
| COc1ccc(CC2COc3ccccc3C2=O)cc1 | TYPE 2 | HeLa | >6.25 µM |
| CC1=C[C@@H](n2cnc3c(N)ncnc32)[C@H](O)[C@@H]1O | TYPE 1 | HeLa | >200 µg/mL |
| Cn1cc(CCCCOc2ccc(C3=NCCO3)cc2)cc1C=O | Type 1/Sabin strain | VERO | >280 µM |
| CSc1nsc(-c2cccnc2)c1C#N | Type 1/Brunhilde | HEP-2 | 0.75 µM |
| Nc1nccc2c1ncn2[C@@H]1C[C@H](CO)[C@@H](O)[C@H]1O | TYPE 1 | HeLa | >400 µg/mL |
| Nc1ncnc2c1ncn2[C@H]1C[C@@H](CO)[C@H](O)[C@@H]1O | TYPE 1 | HeLa | >400 µg/mL |
| CC(C)=CCCC(CO)C1CCC2C3CC=C4C[C@H](O)[C@@H](O)CC4(C)C3CCC12C | TYPE 3 | VERO | 56.3 µg/mL |
| CSc1nsc(-c2ccc(OCCCOc3ccccc3)cc2)c1C#N | TYPE 1 | HEP-2/L-929/VERO | 5 µM |
| CC(=O)OCCOCN1C(N)=CC(N)=NS1(=O)=O | TYPE 1 | HeLa | >400 µg/mL |
| CCOC(=O)c1ccc(OCCCOc2ccc(-c3snc(SC)c3C#N)cc2)cc1 | TYPE 1 | HEP-2/L-929/VERO | >2 µM |
| Nc1ncnc2c1ncn2[C@@H]1C[C@H](CO)[C@@H](O)[C@H]1O | TYPE 1 | HeLa | >4 µg/mL |
| Clc1ccc(C2COc3ccccc3C2)cc1 | IA (TYPE 2) | HEP-2 | >10 µM |
| Cn1cc(CCCCOc2ccc(C(=O)O)cc2)cc1C=O | Type 1/Sabin strain | VERO | >380 µM |
| Cc1ccc(C(=O)CCCCOc2ccc(C3=NCC(C)O3)cc2)s1 | TYPE 3 | VERO | 1.54 µM |
| Nc1ncnc2c1ncn2[C@@H]1C=C(CO)[C@@H](O)[C@@H]1O | TYPE 1 | HeLa | >400 µg/mL |
| COc1ccc(Cc2coc3ccccc3c2=O)cc1 | TYPE 2 | HeLa | >25 µM |
| Cc1c(-c2ccccc2)n(-c2ccc(F)cc2)c2ccc(C(C)C)cc2c1=O | TYPE 1/SABIN | HeLa S3 | >2 µg/mL |
| CSc1nsc(-c2ccccc2)c1C#N | TYPE 1 | HEP-2 | 0.045 µM |
| CSc1nsc(-c2ccc(OCCOc3ccccc3)cc2)c1C#N | TYPE 1 | HEP-2/L-929/VERO | 5 µM |
| COc1ccc(/C=N/N=C(\N)NO)cc1.Cc1ccc(S(=O)(=O)O)cc1 | Brunhilde (type 1) | VERO | >50 µM |
| CCOC(=O)c1ccc(OCCC2CCN(c3ccc(C)nn3)CC2)cc1 | TYPE 1 | HEP-2/L-929/VERO | 0.23 µM |
| NC(=O)c1cncc([C@H]2O[C@H](CO)[C@@H](O)[C@@H]2O)c1 | - | HeLa | ≥100 µg/mL |
| N#CC1=CN(COCCO)S(=O)(=O)N=C1N | TYPE 1 | HeLa | >400 µg/mL |
| Brc1ccc(C2=Cc3cc(Br)ccc3OC2)cc1 | TYPE 2 | HEP-2 | >10 µM |
| CCOc1ccc(-c2cc(N(CC)CC)no2)c(O)c1 | SABIN (TYPE 1) | VERO | >362 µM |
| CSc1nsc(-c2ccc(OCc3ccccc3)cc2)c1C#N | TYPE 1 | HEP-2/L-929/VERO | >50 µM |
| NC1=CC(N)=NS(=O)(=O)N1COCCO | TYPE 1 | HeLa | >400 µg/mL |
| Cc1c(-c2ccccc2)n(-c2ccccc2)c2ccc(C(C)C)cc2c1=O | TYPE 1/SABIN | HeLa S3 | 5 µg/mL |
| COc1ccc(CC2COc3cc(OC)cc(OC)c3C2=O)cc1 | TYPE 2 | HeLa | >6.25 µM |
| Cc1ccc(C(=O)CCCCCCOc2ccc(C3=N[C@H](C)CO3)cc2)s1 | TYPE 3 | VERO | 4.98 µM |
| CCN(CC)c1cc(-c2ccc(O)cc2O)on1 | SABIN (TYPE 1) | VERO | 25 µM |
| O=C1C=CN(COCCO)S(=O)(=O)N1COCCO | TYPE 1 | HeLa | >400 µg/mL |
| Nc1nc2c(ncn2[C@H]2CO[C@@H](CO)C2)c(=O)[nH]1 | TYPE 1 | HeLa | >200 µg/mL |
| NC(=O)c1cncc([C@@H]2O[C@H](CO)[C@H](O)[C@@H]2O)c1 | - | HeLa | ≥100 µg/mL |

A second listing of 14 rows from above:

{"smiles": "CC1=C[C@@H](n2cnc3c(N)ncnc32)[C@H](O)[C@@H]1O", "strain": "TYPE 1", "cell line": "HeLa", "result": ">200 µg/mL"}
{"smiles": "CC=NC(=N)c1nc(-c2cccc(C)c2)n(Cc2ccccc2)n1", "strain": "TYPE 1", "cell line": "HeLa", "result": ">10 µg/mL"}
{"smiles": "Cn1cc(CCCCOc2ccc(C(=O)O)cc2)cc1C=O", "strain": "Type 1/Sabin strain", "cell line": "VERO", "result": ">380 µM"}
{"smiles": "OCCOCn1c(CCc2ccccn2)nc2ccccc21", "strain": "TYPE 1", "cell line": "HEL", "result": ">100 µg/mL"}
{"smiles": "Cc1nsc(C)c1C#N", "strain": "Type 1/Brunhilde", "cell line": "HEP-2", "result": ">1000 µM"}
{"smiles": "Cc1cn(CCCC(O)CF)c(=O)[nH]c1=O", "strain": "TYPE 1", "cell line": "HeLa", "result": ">400 µg/mL"}
{"smiles": "Cc1ccc(C(=O)CCCCOc2ccc(C3=N[C@@H](C)CO3)cc2)s1", "strain": "TYPE 2", "cell line": "VERO", "result": "2.26 µM"}
{"smiles": "CCOC(=O)c1ccc(OCCCCCc2cc(C)no2)cc1", "strain": "TYPE 2", "cell line": "HELA-OHIO", "result": "0.8 µg/mL"}
{"smiles": "CSc1nsc(-c2cccnc2)c1C#N", "strain": "Type 1/Brunhilde", "cell line": "HEP-2", "result": "0.75 µM"}
{"smiles": "CSc1nsc(-c2ccc(OCc3ccccc3)cc2)c1C#N", "strain": "TYPE 1", "cell line": "HEP-2/L-929/VERO", "result": ">50 µM"}
{"smiles": "NC1=CC(N)=NS(=O)(=O)N1COCCO", "strain": "TYPE 1", "cell line": "HeLa", "result": ">400 µg/mL"}
{"smiles": "OCCOCn1c(CCc2ccccn2)nc2cc(Cl)c(Cl)cc21", "strain": "TYPE 1", "cell line": "HEL", "result": ">100 µg/mL"}
{"smiles": "COc1ccc(OCCCCCCn2ccnc2)c(Cl)c1", "strain": "TYPE 2/MEF1", "cell line": "HeLa", "result": "10.2 µM"}
{"smiles": "COc1cc(/C=C/C(=O)Oc2c(-c3ccc(Cl)c(Cl)c3)oc3ccccc3c2=O)ccc1O", "strain": "TYPE 2", "cell line": "HeLa", "result": ">1.56 µM"}

Blank or dashed fields: not listed here. Conditions beyond the fields shown may differ between rows.